Columns and labels:
CCHFV IbAr10200 GP38 = target: T1, CCHFV IbAr10200 GP38 (Crimean-Congo hemorrhagic fever virus, …, UniProt Q8JSZ3 248-519); assay: BLI
T1 chain: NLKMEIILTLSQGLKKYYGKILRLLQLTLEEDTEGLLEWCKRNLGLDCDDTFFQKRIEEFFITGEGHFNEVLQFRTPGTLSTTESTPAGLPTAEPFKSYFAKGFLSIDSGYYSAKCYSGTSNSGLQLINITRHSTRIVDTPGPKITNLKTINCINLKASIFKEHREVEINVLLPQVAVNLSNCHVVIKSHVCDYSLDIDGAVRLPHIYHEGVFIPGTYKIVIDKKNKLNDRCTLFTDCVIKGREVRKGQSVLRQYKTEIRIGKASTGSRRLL

CCHFV Turkey-2004 GP38 = target: T2, CCHFV Turkey-2004 GP38 (Crimean-Congo hemorrhagic fever virus, …); assay: BLI
T2 chain: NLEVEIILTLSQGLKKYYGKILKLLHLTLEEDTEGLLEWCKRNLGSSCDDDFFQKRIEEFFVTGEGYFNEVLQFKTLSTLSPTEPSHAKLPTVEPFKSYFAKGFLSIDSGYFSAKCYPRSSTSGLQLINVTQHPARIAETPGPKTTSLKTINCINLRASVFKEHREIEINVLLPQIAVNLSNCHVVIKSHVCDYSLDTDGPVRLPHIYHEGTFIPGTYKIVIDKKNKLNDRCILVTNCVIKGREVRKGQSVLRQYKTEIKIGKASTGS

B1: human chimeric 13G8 mAb (c13G8) (antibody, V domains shown)
VH: DVQLQQSGPGLVAPSQSLSITCTVSGFSLTNYGIHWVRQPPGKGLEWLGVIWAGGYTKYNSALMSRLSMSKDNSKSQVFLKMNSLQTDDTAMYYCARDEVRRDYYAMDHWGQGTTVTVSS
VL: DIQMTQSPAILSASPGEKVTMTCWASSGVSYMHWYQQKPGSSPKPWIFATSNLASGVPARFSGSGSGTSYSLTISRVEAEDAATYYCQQWSFNPLTFGAGTKLEIK
Work on B1 yielded a Kd (CCHFV IbAr10200 GP38) of 0.52 nM and a Kd (CCHFV Turkey-2004 GP38) of 0.56 nM.

— PMC9701186 (2022)
